# Laboratory results as given in article PMC6167350, “Small-molecule AgrA inhibitors F12 and F19 act as antivirulence agents against Gram-positive pathogens” (Scientific Reports, 2018).
# Target: T1, AgrA_C (C-terminal DNA-binding domain of AgrA) (UniProt Q8CNM5)
# T1 sequence (looked up): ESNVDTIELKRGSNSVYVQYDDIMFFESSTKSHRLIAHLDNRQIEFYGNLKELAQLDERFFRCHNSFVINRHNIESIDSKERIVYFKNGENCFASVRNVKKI
# Test: EMSA
# Settings: 1 uM AgrA_C, 1 nM DNA, 0.1 uM F19, 1% DMSO, complex band present, EMSA: 1 nM 32P-P3 DNA, constant 1% DMSO, pH and temperature not given (procedure cited from ref. 8), recombinant protein, residues 137-238, protein details: His tag (pET28b, NdeI/HindIII), label: 32P end label
sequence,measurement,value
TAGAAACAATCTTATTTTTTTTGAATATAC (double strand) [P3 DNA (agr P3 promoter oligonucleotide)],binding result,binds

# The exact form of at least one protein or probe is not confirmed. Tags and fusion partners may be left off the protein sequences shown.
